Data taken from the supplement of paper PMC9931576.
Numbering of substitutions follows the chain as printed. Human monoclonal antibodies against the spike receptor-binding domain (heavy:light variable regions). IC50 against pseudoviruses bearing the spike of naturally observed variants; lower = stronger; >10 µg/ml means not reached at the top dose. No active / inactive call. The stated detection limit is 0.0005 µg/ml; values near or below 0.001 µg/ml lie at the floor of the assay.

B1: XGv-287 (protein)
chain 1: QVQLVQSGAEVKKPGASVKVSCKTSGYTFTTYYMHWVRQAPGQGLEWMGIINPSDGSTNYAQKFQDRVTLTKDTSTSTFYMELSSLTSEDTAKYYCARAEGSSWLGWFDPWGQGTLVTVSS
chain 2: QSVLTQPPSASGTPGQRVTISCSGSNSNIGNHFVYWYQQLPGKAPKLLIYRNNQRPSGVPDRFSGSKSGTSASLAISGLRSEDEADYYCASWNDGLSASGWVFGGGTKLTV
B2: XGv-288 (protein)
chain 1: QVQLVQSGAEVKKPGASVKVSCKASGYTFTNYYIHWVRQAPGQGLEWMAIINPSGGGASYAHKFQGRVTMTRDTSTSTLYMELISLRSDDTAVYYCARAEGSSWLGWFDPWGQGTLITVSS
chain 2: B1 chain 2 with N26S, N31S, H32N, F33Y, K43T, N53A, S91A, N93D, A98G
B3: XGv-290 (protein)
chain 1: QVQLVQSGAEVKKPGASVKVSCKASGYTFKNYHMHWVRQAPGQGLEWMGIINPSGGGSSYAQKFQGRVTMTGDTSTSTVYMELSSLRSEDTAVYYCARAEGSSWLGWFDPWGQGTLVTVSS
chain 2: QSVLTQPPSASGTPGQRVTISCSGSSSNIGSNYVYWYQQLPGTAPKVLIYRNNQRPSGVPDRFSGSKSGTSASLAISGLRSEDEAEYYCAAWDDGLSGSGWLFGGGTKLT
B4: XGv-296 (protein)
chain 1: QVQLVQSGAEVKKPGASVKISCKASGYTFTDHYVHWVRQAPGQGLEWMAIVNPSDGSTSYAQKFQGRVTMTSDTSTTTIYMELSSLRSGDTAVYYCARAEGSSWLGWFDPWGQGTQVTVSS
chain 2: QSVLTQPPSASGTPGQRVTISCSGSSSNIGGHYVYWYQQFPGTAPKLLIYRSNQRPSGVPDRFSGSKSGTSASLAISGLRSEDEADYFCAAWDDGLRGSGWVFGGGTTLTV
B5: XGv-297 (protein)
chain 1: QVQLVQSGAEVKKPGASVKVSCRTSGYTFTAYYIHWVRQVPGQGLEWMGIINPSGGGASYAQTFQGRVSLTRDTSTRTVYMDLSSLISEDTAVYYCARAEGTHWLGWFDPWGQGTLVTVSS
chain 2: QSVLTQPPSASGTPGQRVTISCSGSSSNIASNSVYWYQQLPGTAPKLLIYRNNQRPSGVPDRFSGSTSGTSASLAISGLRSEDEADYYCAAWDDNLSGSGWVFGGGTKLTVL
B6: XGv-301 (protein)
chain 1: EVQLVESGGGLIQPGGSLRLSCAASGITVSSNYMRWVRQAPGKGLEWVSLLYSGGTAFYADSVKGRFTISRDNSKNTLFLQMNSLRDEDTAVYYCARDLVVYGMDVWGQGTTVTVSS
chain 2: DIQLTQSPSSLSASVGDRVTITCRASQGISSYLAWYQQKPGKAPKLLIYGASTLQSGVPSRFSGSGSGTDFTLTISSLQPEDFAIYYCQQLNSDFLTFGGGTKVEIK
B7: XGv-304 (protein)
chain 1: B6 chain 1 with A23E, G26E, L51I, S53A, T56S, A57T, F79Y, D87V, V100M
chain 2: B6 chain 2 with K45N, I85T, Q90H, F95P
B8: XGv-311 (protein)
chain 1: EVQLVESGGGLVQPGGSLRLSCGASGFSFSNYDIHWVRQATGKGLEWVSGVGTYGDTYYSDSVKGRFTISRENAKNSLYLQMNSLRVGDTAVYFCARGSVDPTTNWYFDLWGRGTLVTVSS
chain 2: DIQMTQSPSSLSASVGDRVTITCRASQGIRNFLAWYQQKPGKAPKLLLSAASRLESGVPSRFSGSGSGTDYTLTISSLQPEDFATYYCQQYYSSPPITFAQGTRLEIK
B9: XGv-343 (protein)
chain 1: QVQLVQSGAEVKKPGASVKVSCKASGYTFTSYHMHWVRQAPGQGLEWMGIINPSGGSTTYAQKFQGRVTMTRDASTSTVYMELSSLTSEDTAVYYCARAHLVVPAALGDYWGQGTLVTVSS
chain 2: QTVVTQEPSLTVSPGGTVTLTCASSTGAVTSTYFPNWFQQKLGQAPRALIYSTSNKHSWTPARVSGSLLGGKAALTLSGVQPEDEADYYCLLYYGGTWVFGGGTKLTVL
B10: XGv-346 (protein)
chain 1: EVQLLESGGGLVQPGGSLRLSCAASGFTFSYFAMSWVRQAPGKGLECVSIIHGDGGNTYYADSVKGRFTISRDNSKNTLYLQMNSLRAEDTAVYYCAKFVDTAFFDSWGQGALVIVSS
chain 2: SYVLTQPPSVSVAPGKTARVTCDGNNIGVKSVQWYQQKPGQAPVLVIYYDSDRPSGIPERFSGSNSGNTATLTISRVEAGDEADYYCQVWDSSSDYLVFGGGTKLTV
B11: XGv-360 (protein)
chain 1: QLQLQESGPRLVRPSETLSLTCIVSGDSISSSTYYWGWIRQPPGKGLEWIGSILRNGTNHCNASLRSRLTISVDTSQNQFSLKLSSVTAADTATYYCTRDSDASGWSGELYYYYGMDVWGQGTTVTVSS
chain 2: DIVMTQSPLFLPVTPGEPASISCRSSQSLLHFNGYNYLDWYLQKPGQSPQLLIYLGSNRASGVPDRFSGGGSGTDFTLKISRVEAEDVGVYYCMQALQTPRTFGQGTKVDIK
B12: XGv-380 (protein)
chain 1: QVQLVQSGAEVKKPGASVKVSCKASGYTFTSYGISWVRQAPGQGLEWMGWINTYNGDTNYAQNLQARVTMTTDTSTSTAYMELRSLRSDDTAVYFCARVLGYYQDSSGYCFDYWGQGTLVTVSS
chain 2: EIVMTQSPATLSVSPGERATLSCRASQSVSSNFLAWYQQKPGQAPKLLIYGASTRATGIPARFSGSGSGTEFTLTISSLQSEDFGVYFCQQYDNWPPEWTFGQGTTVEIK

target: SARS-CoV-2 Omicron BA.1 spike pseudovirus; test: pseudovirus neutralization IC50; higher = weaker neutralization
Protocol: (§1)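 Single-round VSV luciferase pseudovirus mixed with antibody dilutions for 1 h and put on Huh-7 cells for about a day; IC50 from the dose curve.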

Binder | pseudovirus neutralization IC50 [µg/mL]
B1 | > 10
B2 | 0.488
B3 | 3.38
B4 | 2.21
B5 | 0.0201
B6 | 0.0276
B7 | 0.061
B8 | > 10
B9 | 0.379
B10 | 0.615
B11 | 2.5
B12 | 0.819

target: SARS-CoV-2 Omicron BA.2 spike pseudovirus; test: as above
Protocol: as §1

Binder | pseudovirus neutralization IC50 [µg/mL]
B1 | 9.1
B2 | 0.0151
B3 | 0.0443
B4 | 0.0465
B5 | 0.0178
B6 | 0.0269
B7 | 0.0472
B8 | > 10
B9 | 0.107
B10 | 0.604
B11 | > 10
B12 | 0.781

target: SARS-CoV-2 Omicron BA.2.75 spike pseudovirus; test: as above
Protocol: as §1

Binder | pseudovirus neutralization IC50 [µg/mL]
B1 | > 10
B2 | 0.0678
B3 | 0.236
B4 | 0.152
B5 | 0.0286
B6 | 0.0228
B7 | 0.421
B8 | > 10
B9 | 0.585
B10 | 0.924
B11 | > 10
B12 | 1.01

target: SARS-CoV-2 Omicron BA.5 spike pseudovirus; test: as above
Protocol: as §1

Binder | pseudovirus neutralization IC50 [µg/mL]
B1 | 9.49
B2 | 0.00768
B3 | 0.0255
B4 | 0.0251
B5 | 0.0162
B6 | 0.022
B7 | 0.0478
B8 | > 10
B9 | > 10
B10 | > 10
B11 | > 10
B12 | 0.972

target: SARS-CoV-2 Omicron BQ.1.1 spike pseudovirus; test: as above
Protocol: as §1

Binder | pseudovirus neutralization IC50 [µg/mL]
B1 | > 10
B2 | 0.385
B3 | 0.28
B4 | 0.974
B5 | 0.463
B6 | > 10
B7 | > 10
B8 | > 10
B9 | > 10
B10 | > 10
B11 | > 10
B12 | > 10

target: SARS-CoV-2 Omicron XBB spike pseudovirus; test: as above
Protocol: as §1

Binder | pseudovirus neutralization IC50 [µg/mL]
B1 | > 10
B2 | 0.489
B3 | > 10
B4 | > 10
B5 | > 10
B6 | > 10
B7 | > 10
B8 | > 10
B9 | > 10
B10 | 1.1
B11 | > 10
B12 | > 10

target: SARS-CoV-2 early D614G spike pseudovirus; test: as above
Protocol: as §1

Binder | pseudovirus neutralization IC50 [µg/mL]
B1 | 0.102
B2 | 0.00923
B3 | 0.0237
B4 | 0.0156
B5 | 0.001
B6 | 0.00356
B7 | 0.0255
B8 | > 10
B9 | 0.0113
B10 | 0.654
B11 | 0.00635
B12 | 0.628
